Data: patent US20090081183
For part of these data: Where a protein sequence is shown, tags need not be part of it. For part of these data: For at least one entry, the source does not settle the construct or the ends of the probe.

Experiments:
Test in all cases: EMSA
[1] = biological target: T1, LSF (his-LSF) (Homo sapiens) (UniProt Q12800); conditions: purified recombinant protein; protein details: His tag, expressed in E. coli; label: end labeled
T1 sequence (limits assumed): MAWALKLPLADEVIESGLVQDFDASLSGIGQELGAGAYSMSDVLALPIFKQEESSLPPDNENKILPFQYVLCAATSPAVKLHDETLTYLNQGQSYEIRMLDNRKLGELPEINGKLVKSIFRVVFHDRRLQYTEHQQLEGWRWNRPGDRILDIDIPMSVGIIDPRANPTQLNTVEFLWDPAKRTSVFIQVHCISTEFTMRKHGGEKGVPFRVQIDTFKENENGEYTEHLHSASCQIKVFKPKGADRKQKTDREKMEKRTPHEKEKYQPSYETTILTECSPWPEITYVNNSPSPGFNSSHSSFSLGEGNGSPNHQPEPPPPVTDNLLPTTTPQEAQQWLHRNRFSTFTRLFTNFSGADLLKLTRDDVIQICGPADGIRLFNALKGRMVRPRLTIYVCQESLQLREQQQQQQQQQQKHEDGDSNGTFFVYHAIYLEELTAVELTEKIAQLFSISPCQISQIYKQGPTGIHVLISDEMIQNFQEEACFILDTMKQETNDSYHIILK

[2] = test system: LSF + YY1 complex (Homo sapiens); conditions: purified recombinant protein; protein details: His tags, expressed in E. coli; label: end labeled
[3] = test system: YY1/LSF repressor complex (copurifying with HDAC1) from CEM nuclear extract (Homo sapiens); conditions: RCS-binding activity, YY1, LSF and HDAC1 copurify in 0.3 and 0.4 M NaCl fractions of RCS DNA-affinity column; purified native protein; label: end labeled

Measured: binding result

CAAGGGACTTTCCGCTGGGGACTTTCCAGGGAGGCGTGGCCTGGGCGGGACTGGGGAGTGGCGAGCCCTCAGATGCTGCATATAAGCAGCTGCTTTTTGCCTGTACTGGGTCTCTCTGGTTAGACCAGATTTGAGCCTGGGAGCTCTCTGGCTAACTAGGGAACCCACTGCTTAAGCCTCAATAAAGCTTGCCTTGAGTG (double strand) [HIV-1 LTR RCS oligonucleotide (-10 to +27)]
binds: [1] | [2] | [3]
